From paper PMC5015959, “The Binding of Plasmodium falciparum Adhesins and Erythrocyte Invasion Proteins to Aldolase Is Enhanced by Phosphorylation” (PLoS ONE, 2016)

Sequences of proteins named here, by UniProt entry; tags and fusion partners are left off.
UniProt Q7KQL9, whole entry: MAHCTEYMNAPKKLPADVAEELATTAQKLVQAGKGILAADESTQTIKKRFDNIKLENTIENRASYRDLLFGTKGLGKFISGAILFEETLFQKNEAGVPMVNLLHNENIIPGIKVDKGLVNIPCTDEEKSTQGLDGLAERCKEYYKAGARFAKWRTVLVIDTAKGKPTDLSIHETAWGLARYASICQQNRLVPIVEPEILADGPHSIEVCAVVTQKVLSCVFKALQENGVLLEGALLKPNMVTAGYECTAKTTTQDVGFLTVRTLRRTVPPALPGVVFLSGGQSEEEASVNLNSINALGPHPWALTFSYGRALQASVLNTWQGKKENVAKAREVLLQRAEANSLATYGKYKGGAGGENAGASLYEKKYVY

Target: P. falciparum aldolase (Plasmodium falciparum, UniProt Q7KQL9)
Settings: unmodified or phosphorylated CTDs (phosphorylated synthetic peptides or peptides phosphorylated in vitro); Octet Red, 100 mM Tris-HCl pH 8.0, 25°C; mean of duplicate reactions

NS(=O)(=O)c1cc2c(cc1Cl)NC(C(Cl)Cl)NS2(=O)=O (stereo not shown)
Kd: 2500 nM

The structures given here were assigned with low confidence; some may be wrong.
